# Assay results from US6596700B2, “Methods of treating hepatitis delta virus infection with β-L-2'-deoxy-nucleosides” (priority 2000, dated 2003).
# Test system: hepatitis B virus
# Assay: anti-hepatitis B virus activity in transfected Hep G-2 (2.2.15) cells
# Format: cell-based
# Settings: cytotoxicity IC50 / EC50
structure (smiles),measurement,value
"O=c1ccn([C@@H]2C[C@@H](O)[C@H](CO)O2)c(=O)[nH]1 [β-L-dU, β-L-2′-deoxyuridine]",Selectivity Index IC50/EC50,>40
